Measurements as given in paper PMC7038234, “Screening of Natural Extracts for Inhibitors against Japanese Encephalitis Virus Infection” (Antimicrobial Agents and Chemotherapy, 2020).

These molecules were tested on JEV strain AT31 (assay: not given). Conditions: not given.

| Molecule | Inhibition (%) |
| --- | --- |
| Isoliquiritin apioside | 6.157% |
| Ginkgolide B | -14.6694% |
| Asiaticoside | 1.931% |
| Triolein | 3.456% |

Same assay, conditions: Primary screening of 1034 compounds in the natural extracts library

| Molecule | Inhibition (%) |
| --- | --- |
| CCC(C)C(=O)O[C@@H]1[C@@H](OC(C)=O)[C@]2(C)[C@H](C(C)=O)CC[C@@]23O[C@]32CC[C@H]3C[C@@H](O[C@H]4C[C@@H](OC)[C@H](O[C@@H]5O[C@H](C)[C@@H](O)[C@@H](OC)[C@H]5O)[C@@H](C)O4)CC[C@]3(C)[C@@H]12 (stereo partly shown) [Tenacissoside H] | 29.027% |
| O=C(/C=C/c1ccc(O)c(O)c1)O[C@@H]1C[C@@](OC(=O)/C=C/c2ccc(O)c(O)c2)(C(=O)O)C[C@@H](O)[C@@H]1O [Cynarin;Cynarine] | 13.5513% |
| CCCCC/C=C\C/C=C\CCCCCCCC(=O)NCc1ccccc1 [Linoleamide, N-benzyl-] | 34.8673% |
| Cc1ccc(C(C)C)cc1 [4-Isopropyltoluene] | 22.7637% |
| C[C@@H]1O[C@@H](O[C@H]2[C@H](O[C@H]3CC[C@@]4(C)[C@@H](CC[C@]5(C)[C@@H]4CC=C4[C@@H]6CC(C)(C)CC[C@]6(C(=O)O[C@@H]6O[C@H](CO[C@@H]7O[C@H](CO)[C@@H](O)[C@H](O)[C@H]7O)[C@@H](O)[C@H](O)[C@H]6O)CC[C@]45C)[C@]3(C)CO)OC[C@H](O)[C@@H]2O)[C@H](O)[C@H](O[C@@H]2O[C@H](CO)[C@@H](O[C@@H]3O[C@H](CO)[C@@H](O)[C@H](O)[C@H]3O)[C@H](O)[C@H]2O)[C@H]1O [Macranthoidin B] | 4.857% |
| C=C[C@@H]1C2=CCOC(=O)C2=CO[C@H]1O[C@@H]1O[C@H](CO[C@@H]2O[C@H](CO)[C@@H](O)[C@H](O)[C@H]2O)[C@@H](O)[C@H](O)[C@H]1O [6'-O-β-D-Glucosylgentiopicroside] | -12.5741% |
| CO[C@H]1C[C@H](O[C@H]2CC[C@]3(C)[C@H]4CC[C@]5(C)[C@@H](C6=CC(=O)OC6)CC[C@]5(O)[C@@H]4CC[C@]3(O)C2)O[C@H](C)[C@H]1O[C@@H]1O[C@H](CO)[C@@H](O)[C@H](O)[C@H]1O [Periplocin] | 55.5992% |
| Emodin-1-O-β-D-glucopyranoside | -4.969% |
| COc1cc(/C=C/C(=O)[O-])ccc1O.[Na+] [Sodium ferulic] | -3.411% |
| O=C(/C=C/c1ccc(O)c(O)c1)O[C@@H]1[C@H](O)C[C@@](O)(C(=O)O)C[C@H]1OC(=O)/C=C/c1ccc(O)c(O)c1 [Isochlorogenic acid B] | 62.7768% |
| OC[C@H]1OC(O)[C@H](O)[C@@H](O)[C@@H]1O (stereo partly drawn) [D(+)-Glucose] | 18.4575% |
| C[C@@H]1O[C@@H](O[C@H]2[C@H](Oc3cc(O)c4c(c3)O[C@H](c3ccc(O)cc3)CC4=O)O[C@H](CO)[C@@H](O)[C@@H]2O)[C@H](O)[C@H](O)[C@H]1O.O [Naringin Hydrate] | 13.8686% |
| CC=C1[C@H](O[C@@H]2O[C@H](CO)[C@@H](O)[C@H](O)[C@H]2O)OC=C(C(=O)OC)[C@H]1CC(=O)OC[C@H]1O[C@@H](OCCc2ccc(O)cc2)[C@H](O)[C@@H](O)[C@@H]1O (stereo in doubt) [Specnuezhenide] | 3.533% |
| CC(=O)O[C@H]([C@@H](O)C[C@@H](C)C1=C2C[C@H](O)[C@H]3[C@@]4(C)CCC(=O)C(C)(C)[C@@H]4CC[C@]3(C)[C@@]2(C)CC1)C(C)(C)O [Alisol A 24-acetate] | 81.2833% |
| COc1ccc(-c2cc(=O)c3c(OC)cc(OC)c(OC)c3o2)cc1OC [Isosinensetin] | -6.089% |
| O=C1C[C@@H](c2ccc(O)cc2)Oc2cc(O[C@@H]3O[C@H](CO)[C@@H](O)[C@H](O)[C@H]3O)ccc21 [Neoliquiritin] | 2.8527% |
| C=C(C)[C@@H]1CC=C(C=O)CC1 [l-Perillaldehyde] | 9.294% |
| C[C@@H](CO[C@@H]1O[C@H](CO)[C@@H](O)[C@H](O)[C@H]1O)[C@@H]1CC[C@@]2(CC[C@]3(C)[C@H](CC[C@@H]4[C@@]5(C)CC[C@H](O[C@@H]6O[C@H](CO)[C@@H](O)[C@H](O)[C@H]6O[C@@H]6O[C@H](CO)[C@@H](O)[C@H](O)[C@H]6O)[C@@](C)(CO[C@@H]6O[C@H](CO)[C@@H](O)[C@H](O)[C@H]6O)[C@@H]5CC[C@]43C)[C@H]2O)CO1 [Hosenkoside K] | 8.565% |
| COc1ccc([C@H]2OC[C@H]3[C@@H]2CO[C@@H]3c2ccc(OC)c(OC)c2)cc1OC [Pinoresinol dimethyl ether] | 3.198% |
| CCC(=O)c1cc2c(cc1O)OCO2 [Kakuol] | 11.2846% |
| O[C@H]1[C@H]2c3cc4c(cc3CN3CC[C@H](C[C@@H]1O)[C@H]23)OCO4 [Dihydrolycorine] | 25.2068% |
| COc1ccc(/C=C/c2cc(O)cc(O[C@@H]3O[C@H](CO)[C@@H](O)[C@H](O)[C@H]3O)c2)cc1O [Rhaponticin] | 78.3102% |
| CC(=O)[C@H]1CC[C@H]2[C@@H]3CC=C4C[C@@H](O)CC[C@]4(C)[C@H]3CC[C@]12C [Pregnenolone] | 32.1775% |
| COc1cc2ccc(=O)oc2c(OC)c1O [Isofraxidin] | 5.701% |

| Molecule | Inhibition (%) |
| --- | --- |
| CCCCC/C=C/C(=O)CCc1ccc(O)c(OC)c1 [6-Shogaol] | 88.5059% |
| O=c1c(-c2ccc(O)cc2)coc2c([C@@H]3O[C@H](CO[C@@H]4OC[C@@H](O)[C@H](O)[C@H]4O)[C@@H](O)[C@H](O)[C@H]3O)c(O)ccc12 [Puerarin 6''-O-xyloside] | -7.073% |
| CC(C)=CCC[C@](C)(O)[C@H]1CC[C@]2(C)[C@@H]1[C@H](O)C[C@@H]1[C@@]3(C)CC[C@H](O)C(C)(C)[C@@H]3[C@@H](O)C[C@]12C [Protopanaxatriol] | 68.9647% |
| CC(=O)O[C@H]1C[C@]2(O)[C@@H]3CC[C@@H]4C[C@@H](O)CC[C@]4(C)[C@H]3CC[C@]2(C)[C@H]1c1ccc(=O)oc1 [Bufotaline] | 32.4793% |
| O=c1cc(-c2ccc(O)c(O)c2)oc2cc(O)c([C@@H]3O[C@H](CO)[C@@H](O)[C@H](O)[C@H]3O)c(O)c12 [IsoorientinI] | 2.497% |
| O=C1OC(=O)[C@H]2[C@@H]1[C@@H]1CC[C@H]2O1 [Norcantharidin] | 10.6149% |
| COc1cc(C=O)cc(OC)c1O | -7.027% |
| CC1=C(CC[C@@H](C)CO[C@@H]2O[C@H](CO)[C@@H](O)[C@H](O)[C@H]2O)O[C@H]2C[C@H]3[C@@H]4CC=C5C[C@@H](O[C@@H]6O[C@H](CO)[C@@H](O[C@@H]7O[C@@H](C)[C@H](O)[C@@H](O)[C@H]7O)[C@H](O)[C@H]6O[C@@H]6O[C@@H](C)[C@H](O)[C@@H](O)[C@H]6O)CC[C@]5(C)[C@H]4CC[C@]3(C)[C@@H]12 [Pseudoprotodioscin] | 5.664% |
| C[N+]1(C)CCC[C@H]1C(=O)[O-].Cl [Stachydrine hydrochloride] | 7.898% |
| OCC1(O)COc2cc(O)ccc2-c2cc(O)c(O)cc2C1 (stereo not shown) [Protosappanin B] | 20.8717% |
| COC(=O)C1=CO[C@@H](O[C@@H]2O[C@H](CO[C@@H]3O[C@H](CO)[C@@H](O)[C@H](O)[C@H]3O)[C@@H](O)[C@H](O)[C@H]2O)[C@@H]2C(CO)=CC[C@H]12 [genipin-1-b-D-gentiobioside] | 15.496% |
| alpha.-Terpineol | 5.562% |
| COc1c(/C=C/C(=O)c2ccc(O)cc2)ccc(O)c1O [Licochalcone B] | -23.6842% |
| C=C(C)[C@@H]1CC[C@]2(C(=O)O)CC[C@]3(C)[C@H](CC[C@@H]4[C@@]5(C)CC[C@H](O)[C@@](C)(CO)[C@@H]5CC[C@]43C)[C@@H]12 [Anemosapoginin] | 80.744% |
| CC(C)=CC[C@H](OC(=O)C=C(C)C)C1=CC(=O)c2c(O)ccc(O)c2C1=O [β, β-dimethyl-acry-lalkannin] | 95.9993% |
| COc1ccc(-c2coc3cc(O[C@@H]4O[C@H](CO)[C@@H](O)[C@H](O)[C@H]4O)ccc3c2=O)cc1O [Calycosin-7-glucoside] | 4.742% |
| C[C@H](CO[C@@H]1O[C@H](CO)[C@@H](O)[C@H](O)[C@H]1O)[C@H]1CC[C@@]2(CC[C@]3(C)[C@H](CC[C@@H]4[C@@]5(C)CC[C@H](O[C@@H]6O[C@H](CO)[C@@H](O)[C@H](O)[C@H]6O[C@@H]6OC[C@@H](O)[C@H](O)[C@H]6O)[C@@](C)(CO)[C@@H]5CC[C@]43C)[C@H]2O)CO1 [Hosenkoside F] | -16.7877% |
| COc1cc(-c2coc3c([C@@H]4O[C@H](CO)[C@@H](O)[C@H](O)[C@H]4O)c(O)ccc3c2=O)ccc1O [Methoxypuerarin, 3'-] | 10.4379% |
| C=C[C@H](O)C#CC#CC/C=C\CCCCCCC [Falcarinol，Panaxynol] | 91.6948% |
| COC1[C@H](O)[C@@H](O)C(O)[C@H](O)[C@H]1O (stereo partly drawn) [L-Quebrachitol] | 3.754% |
| C=C(CCC=C(C)C)[C@H]1CC[C@]2(C)[C@@H]1[C@H](O)C[C@@H]1[C@@]3(C)CC[C@H](O[C@@H]4O[C@H](CO)[C@@H](O)[C@H](O)[C@H]4O[C@@H]4O[C@H](CO)[C@@H](O)[C@H](O)[C@H]4O)C(C)(C)[C@@H]3CC[C@]12C [Ginsenoside Rk1] | -23.9454% |
| COc1cc(-c2oc3cc(O)cc(O)c3c(=O)c2O[C@@H]2O[C@H](CO[C@@H]3O[C@@H](C)[C@H](O)[C@@H](O)[C@H]3O)[C@@H](O)[C@H](O)[C@H]2O)ccc1O [Narcissoside] | 14.3798% |
| CCN1C[C@]2(COC)[C@H](O)C[C@H](OC)[C@@]34[C@@H]5C[C@@]6(O)[C@H](OC(=O)c7ccccc7)[C@@H]5[C@@](O)([C@@H]([C@H](OC)[C@H]23)[C@@H]14)[C@@H](O)[C@@H]6OC [Benzoylaconine] | 19.17% |
| CC(C)COC(=O)c1ccc(O)cc1 [Isobutyl 4-Hydroxybenzoate] | -13.3913% |

Same assay, conditions: primary screening of 1034 compounds in the natural extracts library; red numbers = obvious cytotoxicity, blue numbers = insoluble in DMSO (colours not visible)

| Molecule | Inhibition (%) |
| --- | --- |
| COc1c(O)cc2oc3cc(O)c(CC=C(C)C)c(O)c3c(=O)c2c1CC=C(C)C [α-mangostin] | -40.2602% |

These molecules were tested on JEV strain AT31 (assay: microbe, parasite or virus in culture). Conditions: Japanese encephalitis virus, 24 h, Primary screening of 1034 compounds in the natural extracts library.

| Molecule | inhibition at 50 µM |
| --- | --- |
| C[C@@H]1[C@H]2[C@H](O[C@@H]3O[C@H](CO)[C@@H](O)[C@H](O)[C@H]3O)OC=C(C(=O)O)[C@H]2C[C@@H]1O [Loganic acid] | 4.02% |
| COC(=O)c1ccc(O)cc1 [Methylparaben] | -4.14% |
